Compound potency records, mixed from different reports. Data source: NIAID ChemDB in PubChem.

All rows: cytotoxicity tests; cells: MT-2; read-out: CC50

Neighbouring rows are from separate reports. An empty or dashed field is not shown. CCn: concentration that lowers growth or viability of the cells by n%.

structure	read by	value
CC(C)OC(=O)[C@H](C)N[P@](=O)(CO[C@H](C)Cn1cnc2c(N)ncnc21)Oc1ccccc1	XTT / absorbance	40 µM
C[C@@H]1O[C@@H]2OCCC[C@@H]2[C@@H]1OC(=O)N[C@@H](Cc1ccccc1)[C@H](O)CN1C[C@H]2CCCC[C@H]2C[C@H]1C(=O)NC(C)(C)C	MTT	32.9 µM
Nc1nc(NC2CC2)c2ncn([C@H]3C=C[C@@H](CO)O3)c2n1	-	>20 µM
NC(=O)C(c1ccccc1)(c1ccccc1)C1CCCN(CCC2CCCCC2)C1	XTT	40 µM
Nc1ccn([C@@H]2CC[C@H](CO)O2)c(=O)n1	-	>100 µM
Nc1nc(Cl)c2ncn([C@H]3C=C[C@@H](CO)C3)c2n1	-	7 µg/mL
Cc1cn([C@H]2C[C@H](N=[N+]=[N-])[C@@H](CO)O2)c(=O)[nH]c1=O	-	137 µg/mL
C[C@@H]1O[C@H]2OCCC[C@H]2[C@H]1OC(=O)N[C@@H](Cc1ccccc1)[C@H](O)CN1C[C@H]2CCCC[C@H]2C[C@H]1C(=O)NC(C)(C)C	MTT	36.4 µM
NC(=O)C(c1ccccc1)(c1ccccc1)[C@H]1CCCN(CCc2ccc3c(c2)CCO3)C1	XTT	53 µM
CCCc1cc(=O)oc2c3c(c4c(c12)OC(C)(C)C=C4)O[C@H](C)[C@@H](C)[C@@H]3O	-	7.7 µM
CCCOC[C@@H]1NC(=O)[C@@H](NC(=O)OC(C)(C)C)CCCCOc2ccc(cc2)C[C@@H]([C@H](O)CN(CCC(C)C)S(=O)(=O)c2ccc(NC(C)=O)cc2)NC1=O	trypan blue	5.61 µM
C[C@@H]1C[C@@H]([C@H](O)CC2CC(=O)NC(=O)C2)C(=O)[C@@H](C)C1	-	2.51 µM
C[C@H](Cn1cnc2c(N)ncnc21)OCP(=O)(O)O	-	1250 µM
COc1cc(C[C@H]2C(=O)OC[C@@H]2Cc2ccc(OC)c(OC)c2)ccc1O	-	0.63 µg/mL
CCO[C@H]1C[C@H](n2cc(C)c(=O)[nH]c2=O)O[C@@H]1COP(=O)(OCC(Cl)(Cl)Cl)OCC(Cl)(Cl)Cl	-	200 µM
Nc1ccn([C@H]2CC[C@@H](CO)O2)c(=O)n1	-	44 µg/mL
CS(=O)(=O)O[C@H]1C[C@H](n2ccc(=O)[nH]c2=O)O[C@@H]1COP(=O)(OCC(Cl)(Cl)Cl)OCC(Cl)(Cl)Cl	-	>200 µM
Cc1ccccc1CCN1CCCC(C(C(N)=O)(c2ccccc2)c2ccccc2)C1	XTT	52 µM
COc1ccc(S(=O)(=O)N(CC(C)C)C[C@@H](O)[C@H](Cc2ccccc2)NC(=O)O[C@H]2CO[C@H]3O[C@@H]4OCC[C@@H]4[C@H]32)cc1	MTT	44.6 µM
Clc1ccc2c(c1)N=C(N1CCNCC1)c1ccccc1N2	-	7 µg/mL
CCCC[C@@H]1NC(=O)[C@@H](N)CCCCOc2ccc(cc2)C[C@@H]([C@H](O)CN(CCC(C)C)S(=O)(=O)c2ccc(N)cc2)NC1=O	trypan blue	8.905 µM
CC(C)CN(C[C@@H](O)[C@H](Cc1ccccc1)NC(=O)O[C@H]1CCOC1)S(=O)(=O)c1ccc(N)cc1	-	48.2 µM
Cc1c(O)cccc1C(=O)N[C@@H](CSc1ccccc1)[C@H](O)CN1C[C@H]2CCCC[C@H]2C[C@H]1C(=O)NC(C)(C)CO	-	92.6 µM
C[C@@H]1CN2CCC[C@@H]3CCCCC[C@@H]4C(=O)[C@@H](C)CN5CCC[C@@H](CCCCC[C@@H](C1=O)[C@H]32)[C@H]45	MTT	371 µM
CSc1ccc2c(c1)N=C(N1CCNCC1)c1ccccc1N2	-	17 µg/mL
COc1cc([C@@H]2c3cc4c(cc3[C@@H](O[C@@H]3O[C@@H]5CO[C@@H](C)O[C@H]5[C@H](O)[C@H]3O)[C@H]3COC(=O)[C@H]23)OCO4)cc(OC)c1O	-	0.16 µg/mL
O=c1c2ccccc2[se]n1-c1ccccc1	MTT	>20 µg/mL
COc1cc([C@@H]2c3cc4c(cc3[C@H](O)[C@H]3COC(=O)[C@H]23)OCO4)cc(OC)c1O	-	0.0066 µg/mL
Nc1ccn(C[C@@H](CO)OCP(=O)(O)O)c(=O)n1	-	>500 µM
Cc1cn([C@H]2C[C@H](N=[N+]=[N-])[C@@H](CO)O2)c(=O)[nH]c1=O	-	38 µg/mL
Nc1ccn([C@H]2CC[C@@H](CO)O2)c(=O)n1	-	32 µg/mL
CC(=O)O[C@H]1C[C@H](n2ccc(=O)[nH]c2=O)O[C@@H]1COP(=O)(OCC(Cl)(Cl)Cl)OCC(Cl)(Cl)Cl	-	>200 µM
NC(=O)C(c1ccccc1)(c1ccccc1)C1CCCN(CCOCc2ccccc2)C1	XTT	51 µM
C[C@@H]1C[C@@H]([C@H](O)CC2CC(=O)NC(=O)C2)C(=O)[C@@H](C)C1	-	1 µg/mL
Nc1nc(=O)n([C@@H]2CC[C@H](CO)O2)cc1F	-	>100 µM
O=C(CCCN1CCC(O)(c2ccc(Cl)cc2)CC1)c1ccc(F)cc1	-	>20 µg/mL
COc1cc([C@@H]2c3cccc4cccc(c34)C3(SCCCS3)[C@@H]3COC(=O)[C@@H]23)cc(OC)c1OC	propidium iodide	>50 µM
CCCC[C@@H]1NC(=O)[C@@H](NC(=O)OC(C)(C)C)CCCCOc2ccc(cc2)C[C@@H]([C@H](O)CN(CCC(C)C)S(=O)(=O)c2ccc(NC(C)=O)cc2)NC1=O	trypan blue	8.97 µM
O=C1Nc2ccc(Cl)cc2[C@@](C#CC2CC2)(C(F)(F)F)O1	MTT	>6.3 µM
CC(C)OC(=O)OCOP(=O)(CO[C@H](C)Cn1cnc2c(N)ncnc21)OCOC(=O)OC(C)C	XTT / absorbance	50 µM
Nc1nc2c(c(=O)[nH]1)N=CC2[C@H]1C=C[C@@H](CO)O1	MTT	>100 µM
Cc1cccc(C)c1OCC(=O)N[C@@H](Cc1ccccc1)[C@@H](O)C[C@H](Cc1ccccc1)NC(=O)[C@H](C(C)C)N1CCCNC1=O	-	26.7 µM
CC(C)(C)NC(=O)[C@@H]1C[C@@H]2CCCC[C@@H]2CN1C[C@@H](OC(=O)C(CS)NC(=O)CCCCON)[C@H](Cc1ccccc1)NC(=O)[C@H](CC(N)=O)NC(=O)c1ccc2ccccc2n1	MTT	45 µM
COc1cc([C@@H]2c3cc4c(cc3CC3COC(=O)C32)OCO4)cc(OC)c1OC	-	>0.01 µg/mL
COC(=O)[C@H]1[C@H](c2cc(OC)c(OC)c(OC)c2)c2c(ccc3ccccc23)C(=O)[C@]12CCN=N2	propidium iodide	>50 µM
Nc1nc2c(ncn2[C@H]2C=C[C@@H](CO)C2)c(=O)[nH]1	-	41.8 µg/mL
Nc1nc(N2CCCC2)c2ncn([C@H]3C=C[C@@H](CO)O3)c2n1	-	>20 µM
COc1cc([C@@H]2c3c(ccc4ccccc34)C(=O)[C@H]3COC(=O)[C@@H]23)cc(OC)c1OC	propidium iodide	>50 µM
NC(=O)C(c1ccccc1)(c1ccccc1)[C@H]1CCCN(CCc2ccc3c(c2)CCC3)C1	XTT	6 µM
Nc1ccn([C@H]2CC[C@@H](CO)O2)c(=O)n1	-	>32 µM
COc1cc([C@@H]2c3cccc4cccc(c34)C3(SCCCS3)[C@H](CO)[C@@H]2CO)cc(OC)c1OC	propidium iodide	>50 µM

The first 8 rows once more:

structure	read by	value
CC(C)OC(=O)[C@H](C)N[P@](=O)(CO[C@H](C)Cn1cnc2c(N)ncnc21)Oc1ccccc1	XTT / absorbance	40 µM
C[C@@H]1O[C@@H]2OCCC[C@@H]2[C@@H]1OC(=O)N[C@@H](Cc1ccccc1)[C@H](O)CN1C[C@H]2CCCC[C@H]2C[C@H]1C(=O)NC(C)(C)C	MTT	32.9 µM
Nc1nc(NC2CC2)c2ncn([C@H]3C=C[C@@H](CO)O3)c2n1	-	>20 µM
NC(=O)C(c1ccccc1)(c1ccccc1)C1CCCN(CCC2CCCCC2)C1	XTT	40 µM
Nc1ccn([C@@H]2CC[C@H](CO)O2)c(=O)n1	-	>100 µM
Nc1nc(Cl)c2ncn([C@H]3C=C[C@@H](CO)C3)c2n1	-	7 µg/mL
Cc1cn([C@H]2C[C@H](N=[N+]=[N-])[C@@H](CO)O2)c(=O)[nH]c1=O	-	137 µg/mL
C[C@@H]1O[C@H]2OCCC[C@H]2[C@H]1OC(=O)N[C@@H](Cc1ccccc1)[C@H](O)CN1C[C@H]2CCCC[C@H]2C[C@H]1C(=O)NC(C)(C)C	MTT	36.4 µM